Test results as given in patent US20080003660A1, “Use of fast-release pristinamycin-type and polyether ionophore type antimicrobial agents in the production of ethanol” (priority 2006, published 2008).

Test: residual antimicrobial in DDG samples from 8 major ethanol producers

Substance: virginiamycin
- virginiamycin detected in DDG (unvalidated experimental analytical procedure): < 1 ppb
- virginiamycin detected in DDG (validated Eurofins analysis): < 1 ppm
